The values below come from ChEMBL document CHEMBL3870339, “Burkholderia pseudomallei γ-carbonic anhydrase is strongly activated by amino acids and amines” (Bioorg Med Chem Lett, 2017).

For experiment [1], the target named is T1, Carbonic anhydrase (Methanosarcina thermophila) (UniProt P40881).
T1 sequence (whole entry): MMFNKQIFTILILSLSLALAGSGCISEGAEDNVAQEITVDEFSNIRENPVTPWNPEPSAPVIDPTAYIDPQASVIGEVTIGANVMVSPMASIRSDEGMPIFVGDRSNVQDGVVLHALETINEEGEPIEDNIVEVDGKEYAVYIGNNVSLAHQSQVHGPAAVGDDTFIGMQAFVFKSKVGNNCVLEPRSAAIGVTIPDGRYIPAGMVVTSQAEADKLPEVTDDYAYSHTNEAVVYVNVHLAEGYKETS
Briefly: Activation of recombinant Methanosarcina thermophila gamma carbonic anhydrase at 10 uM incubated for 15 mins prior to testing by stopped flow CO2 hydration assay.

In experiment [2] the test system is Burkholderia pseudomallei. Briefly: Activation of Burkholderia pseudomallei gamma carbonic anhydrase assessed as Kcat at 10 uM incubated for 15 mins prior to testing by stopped flow CO2 hydration assay.
The subject of experiment [3] is Burkholderia pseudomallei. The experiment in a line: Activation of Burkholderia pseudomallei gamma carbonic anhydrase at 10 uM incubated for 15 mins prior to testing by stopped flow CO2 hydration assay.

In the case of `N[C@@H](Cc1ccccc1)C(=O)O`, the results for the KA in experiment [1] and in experiment [3] were 68 µM and 1.73 µM, respectively. Moreover, the kcat in experiment [2] was 9.82 ×10⁵ /s.
Turning to `N[C@H](Cc1ccccc1)C(=O)O`, the KA in experiment [1] came to 42 µM; in experiment [3] it was 0.13 µM. Also, in experiment [2], the kcat was determined as 1.49 ×10⁶ /s.
